# Experimental data: PMC6753193, “Targeting the Non-catalytic RVxF Site of Protein Phosphatase-1 With Small Molecules for Ebola Virus Inhibition” (Frontiers in Microbiology, 2019)
# Protein sequences, listed by entry. Tags and fused reporters are not part of them. Residues count along the entry.
# UniProt P62136, 7-300 Y70W/L73Y/G274E/A299E limits assumed: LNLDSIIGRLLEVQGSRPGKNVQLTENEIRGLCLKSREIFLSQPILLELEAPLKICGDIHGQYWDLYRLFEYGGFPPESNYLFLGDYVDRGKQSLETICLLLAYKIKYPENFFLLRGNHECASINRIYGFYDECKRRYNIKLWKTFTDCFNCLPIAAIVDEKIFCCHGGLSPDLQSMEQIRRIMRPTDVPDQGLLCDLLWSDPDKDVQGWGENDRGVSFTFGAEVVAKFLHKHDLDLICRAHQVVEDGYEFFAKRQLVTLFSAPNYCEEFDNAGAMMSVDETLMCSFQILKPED
# Target: MUT PP1 (Y70W, L73Y, G274E and A299E) (Homo sapiens, UniProt P62136, A299E/G274E/L73Y/Y70W)
# Test: Surface plasmon resonance, binding to MUT PP1
smiles,measurement,setting,value
COc1ccc(C=C2CCc3c2nc2ccccc2c3C(=O)OC(C)C(=O)NC2CC2)cc1OC (centres unmarked),Rmax,"MUT PP1, SPR",15.51 RU
same,ka,"MUT PP1, SPR",921.2 M⁻¹ s⁻¹
same,kd,"MUT PP1, SPR",0.002171 s⁻¹
same,Kd,"MUT PP1, SPR, 25°C, 1:1 binding model",2360 nM
same,reduction of binding for mutant PP1 vs WT PP1,from KD values,3 fold
